Anti-infective test results gathered from many reports (values: NIAID ChemDB through PubChem).

Common to all: whole-cell or culture tests; species: Epstein-Barr virus; cell line: P3HR-1; measure: EC50

ECn is the concentration giving n% inhibition of infection, replication or growth. An empty or dashed field is not shown. Neighbouring rows are from separate reports.

| compound | method | result |
|---|---|---|
| Cc1cn([C@H]2C[C@H](N=[N+]=[N-])[C@@H](CO)O2)c(=O)[nH]c1=O | - | 7.7 µM |
| C[C@@H](Cn1cnc2c(N)nc(N)nc21)OCP(=O)(O)O | hybridisation | >20 µg/mL |
| CCC(=O)O[C@H]1C[C@H](n2cc(/C=C/Br)c(=O)[nH]c2=O)O[C@@H]1COP1(=O)OCc2cccc(C)c2O1 | - | >175 µM |
| Nc1nc2c(ncn2CCC(CO)CO)c(=O)[nH]1 | hybridisation | 2.3 µg/mL |
| Nc1ncnc2c1ncn2C[C@@H](CF)OCP(=O)(O)O | hybridisation | ≥10 µg/mL |
| CO[C@@H]1[C@@H](OC(N)=O)[C@@H](O)[C@H](Oc2ccc3c(O)c(NC(=O)c4ccc(O)c(CC=C(C)C)c4)c(=O)oc3c2C)OC1(C)C | PCR | 46.21 µM |
| Cc1cn([C@H]2C[C@H]([N+](=O)[O-])[C@@H](CO)O2)c(=O)[nH]c1=O | hybridisation | 50 µg/mL |
| Nc1nc2c(ncn2COC(CO)CO)c(=O)[nH]1 | hybridisation | 0.2 µg/mL |
| CC(=O)O[C@H]1C[C@H](n2cc(/C=C/Br)c(=O)[nH]c2=O)O[C@@H]1COP1(=O)OCc2cccc(C)c2O1 | - | >50 µg/mL |
| C=CCNc1ncnc2c1ncn2C[C@@H](C)OCP(=O)(O)O | hybridisation | 1.5 µg/mL |
| Cc1cn([C@H]2C[C@H](N=[N+]=[N-])[C@@H](CO)O2)c(=O)nc1N | - | >30 µM |
| C=CCc1cc(OC)c(O[C@H](C)[C@H](O)c2cc(OC)c(OC)c(OC)c2)c(OC)c1 | PCR | 21.9 µM |
| CCCCCC(=O)O[C@H]1C[C@H](n2cc(/C=C/Br)c(=O)[nH]c2=O)O[C@@H]1COP1(=O)OCc2cccc(C)c2O1 | - | >163 µM |
| Nc1nc2c(ncn2COC(CO)CO)c(=O)[nH]1 | - | 0.15 µM |
| Cc1cccc2c1OP(=O)(OC[C@H]1O[C@@H](n3cc(/C=C/Br)c(=O)[nH]c3=O)C[C@@H]1OC(=O)C(C)C)OC2 | - | >171 µM |
| C[C@@H](Cn1cnc2c(NCCN(C)C)ncnc21)OCP(=O)(O)O | hybridisation | 0.5 µg/mL |

The last 2 rows once more:

compound | method | result
Cc1cccc2c1OP(=O)(OC[C@H]1O[C@@H](n3cc(/C=C/Br)c(=O)[nH]c3=O)C[C@@H]1OC(=O)C(C)C)OC2 | - | >171 µM
C[C@@H](Cn1cnc2c(NCCN(C)C)ncnc21)OCP(=O)(O)O | hybridisation | 0.5 µg/mL